The term inhibition denotes the drop in the measured response relative to a control, in per cent.

This is a selection; strong and weak results do not stand in their true shares. The source made the active and inactive calls. Cut-off read from the data, not from the text of the source: active = inhibition above about 30%; inactive = the rest, inconclusive results apart.

This assay can be described thus: antivirals against arbovirus infection, primary screen, cell-based, full library, 10K replicate subset (AID 1251). Conditions: arbovirus infection cell-based antiviral screen; at 10 µM; stronger effect = higher value.
Consider `O=C(NC1CCS(=O)(=O)C1)NP(=S)(Oc1ccccc1)Oc1ccccc1` (stereo unspecified), for which the inhibition was inactive: 1.14%.

The record behind these values is PubChem BioAssay AID1251 (SRMLSC, 2008).
